Where “and” joins values, the source holds several entries; their conditions need not be identical. Equal values may be shown once.
Tested on: Pseudomonas aeruginosa C0214
Test: Bacterial growth / checkerboard assay with kanamycin A
Conditions: for growth curve reading: [10] 0 µM, panel C

## NC[C@H]1O[C@H](O[C@H]2[C@H](O)[C@@H](O[C@H]3O[C@H](CO)[C@@H](O)[C@H](N)[C@H]3O)[C@H](N)C[C@@H]2N)[C@H](O)[C@@H](O)[C@@H]1O
KanaA 8 µg.mL-1 alone (inhibitor 0 µM)
  OD600nm: 0.3090 and 0.2865 and 0.3001
KanaA 16 µg.mL-1 alone (inhibitor 0 µM)
  OD600nm: 0.3312 and 0.2857 and 0.2964
KanaA 32 µg.mL-1 alone (inhibitor 0 µM)
  OD600nm: 0.2577 and 0.2210 and 0.2829
Kanamycin A 8 µg·mL-1, 8 h
  growth curve reading: 0.2090
Kanamycin A 8 µg·mL-1, 9 h
  growth curve reading: 0.2342
Kanamycin A 8 µg·mL-1, 10 h
  growth curve reading: 0.2578
Kanamycin A 8 µg·mL-1, 11 h
  growth curve reading: 0.2718
Kanamycin A 8 µg·mL-1, 12 h
  growth curve reading: 0.2802
Kanamycin A 8 µg·mL-1, 13 h
  growth curve reading: 0.2813
Kanamycin A 8 µg·mL-1, 14 h
  growth curve reading: 0.2816
Kanamycin A 8 µg·mL-1, 15 h
  growth curve reading: 0.2802
Kanamycin A 8 µg·mL-1, 16 h
  growth curve reading: 0.2778
Kanamycin A 8 µg·mL-1, 17 h
  growth curve reading: 0.2779
Kanamycin A 8 µg·mL-1, 18 h
  growth curve reading: 0.2758
Kanamycin A 8 µg·mL-1, 19 h
  growth curve reading: 0.2748
Kanamycin A 8 µg·mL-1, 20 h
  growth curve reading: 0.2731
Kanamycin A 8 µg·mL-1, 21 h
  growth curve reading: 0.2707
Kanamycin A 8 µg·mL-1, 22 h
  growth curve reading: 0.2682
Kanamycin A 8 µg·mL-1, 23 h
  growth curve reading: 0.2658
Kanamycin A 8 µg·mL-1, 24 h
  growth curve reading: 0.2647
Kanamycin A 16 µg·mL-1, 8 h
  growth curve reading: 0.1243
Kanamycin A 16 µg·mL-1, 9 h
  growth curve reading: 0.1559
Kanamycin A 16 µg·mL-1, 10 h
  growth curve reading: 0.1962
Kanamycin A 16 µg·mL-1, 11 h
  growth curve reading: 0.2386
Kanamycin A 16 µg·mL-1, 12 h
  growth curve reading: 0.2679
Kanamycin A 16 µg·mL-1, 13 h
  growth curve reading: 0.2727
Kanamycin A 16 µg·mL-1, 14 h
  growth curve reading: 0.2740
Kanamycin A 16 µg·mL-1, 15 h
  growth curve reading: 0.2720
Kanamycin A 16 µg·mL-1, 16 h
  growth curve reading: 0.2701
Kanamycin A 16 µg·mL-1, 17 h
  growth curve reading: 0.2727
Kanamycin A 16 µg·mL-1, 18 h
  growth curve reading: 0.2750
Kanamycin A 16 µg·mL-1, 19 h
  growth curve reading: 0.2738
Kanamycin A 16 µg·mL-1, 20 h
  growth curve reading: 0.2690
Kanamycin A 16 µg·mL-1, 21 h
  growth curve reading: 0.2714
Kanamycin A 16 µg·mL-1, 22 h
  growth curve reading: 0.2692
Kanamycin A 16 µg·mL-1, 23 h
  growth curve reading: 0.2713
Kanamycin A 16 µg·mL-1, 24 h
  growth curve reading: 0.2771
Kanamycin A 32 µg·mL-1, 8 h
  growth curve reading: 0.0004
Kanamycin A 32 µg·mL-1, 9 h
  growth curve reading: 0.0008
Kanamycin A 32 µg·mL-1, 10 h
  growth curve reading: 0.0015
Kanamycin A 32 µg·mL-1, 11 h
  growth curve reading: 0.0032
Kanamycin A 32 µg·mL-1, 12 h
  growth curve reading: 0.0065
Kanamycin A 32 µg·mL-1, 13 h
  growth curve reading: 0.0133
Kanamycin A 32 µg·mL-1, 14 h
  growth curve reading: 0.0399
Kanamycin A 32 µg·mL-1, 15 h
  growth curve reading: 0.0809
Kanamycin A 32 µg·mL-1, 16 h
  growth curve reading: 0.1197
Kanamycin A 32 µg·mL-1, 17 h
  growth curve reading: 0.1579
Kanamycin A 32 µg·mL-1, 18 h
  growth curve reading: 0.2103
Kanamycin A 32 µg·mL-1, 19 h
  growth curve reading: 0.2611
Kanamycin A 32 µg·mL-1, 20 h
  growth curve reading: 0.2760
Kanamycin A 32 µg·mL-1, 21 h
  growth curve reading: 0.2862
Kanamycin A 32 µg·mL-1, 22 h
  growth curve reading: 0.2885
Kanamycin A 32 µg·mL-1, 23 h
  growth curve reading: 0.2826
Kanamycin A 32 µg·mL-1, 24 h
  growth curve reading: 0.2803
Kanamycin A 64 µg·mL-1, 8 h
  growth curve reading: 0.0000
Kanamycin A 64 µg·mL-1, 9 h
  growth curve reading: 0.0000
Kanamycin A 64 µg·mL-1, 10 h
  growth curve reading: 0.0000
Kanamycin A 64 µg·mL-1, 11 h
  growth curve reading: 0.0000
Kanamycin A 64 µg·mL-1, 12 h
  growth curve reading: 0.0000
Kanamycin A 64 µg·mL-1, 13 h
  growth curve reading: 0.0000
Kanamycin A 64 µg·mL-1, 14 h
  growth curve reading: 0.0000
Kanamycin A 64 µg·mL-1, 15 h
  growth curve reading: 0.0000
Kanamycin A 64 µg·mL-1, 16 h
  growth curve reading: 0.0008
Kanamycin A 64 µg·mL-1, 17 h
  growth curve reading: 0.0027
Kanamycin A 64 µg·mL-1, 18 h
  growth curve reading: 0.0137
Kanamycin A 64 µg·mL-1, 19 h
  growth curve reading: 0.0327
Kanamycin A 64 µg·mL-1, 20 h
  growth curve reading: 0.0564
Kanamycin A 64 µg·mL-1, 21 h
  growth curve reading: 0.0837
Kanamycin A 64 µg·mL-1, 22 h
  growth curve reading: 0.1155
Kanamycin A 64 µg·mL-1, 23 h
  growth curve reading: 0.1484
Kanamycin A 64 µg·mL-1, 24 h
  growth curve reading: 0.1825
Kanamycin A 128 µg·mL-1, 8 h
  growth curve reading: 0.0000
Kanamycin A 128 µg·mL-1, 9 h
  growth curve reading: 0.0000
Kanamycin A 128 µg·mL-1, 10 h
  growth curve reading: 0.0000
Kanamycin A 128 µg·mL-1, 11 h
  growth curve reading: 0.0000
Kanamycin A 128 µg·mL-1, 12 h
  growth curve reading: 0.0000
Kanamycin A 128 µg·mL-1, 13 h
  growth curve reading: 0.0000
Kanamycin A 128 µg·mL-1, 14 h
  growth curve reading: 0.0000
Kanamycin A 128 µg·mL-1, 15 h
  growth curve reading: 0.0000
Kanamycin A 128 µg·mL-1, 16 h
  growth curve reading: 0.0000
Kanamycin A 128 µg·mL-1, 17 h
  growth curve reading: 0.0000
Kanamycin A 128 µg·mL-1, 18 h
  growth curve reading: 0.0000
Kanamycin A 128 µg·mL-1, 19 h
  growth curve reading: 0.0000
Kanamycin A 128 µg·mL-1, 20 h
  growth curve reading: 0.0000
Kanamycin A 128 µg·mL-1, 21 h
  growth curve reading: 0.0000
Kanamycin A 128 µg·mL-1, 22 h
  growth curve reading: 0.0000
Kanamycin A 128 µg·mL-1, 23 h
  growth curve reading: 0.0000
Kanamycin A 128 µg·mL-1, 24 h
  growth curve reading: 0.0000
P. aeruginosa C0214
  MIC: 64 µg/mL
